Assay results from patent publication US20220380347A1.

The chains behind the UniProt entries cited, without tags or fusion partners. Residues count along the entry.
UniProt P0C6X1, 2966-3267 limits assumed: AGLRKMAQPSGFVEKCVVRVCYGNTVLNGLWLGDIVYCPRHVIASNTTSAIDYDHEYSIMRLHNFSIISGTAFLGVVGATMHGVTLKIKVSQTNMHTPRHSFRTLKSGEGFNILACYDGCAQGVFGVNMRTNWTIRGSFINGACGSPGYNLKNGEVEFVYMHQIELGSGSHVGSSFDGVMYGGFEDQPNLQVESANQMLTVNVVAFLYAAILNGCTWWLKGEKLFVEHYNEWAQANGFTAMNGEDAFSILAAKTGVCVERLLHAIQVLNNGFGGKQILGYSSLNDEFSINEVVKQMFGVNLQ

Columns and labels:
[1] = test system: HCov OC43; conditions: read-out: OC43 IC50 (uM) MEDIAN
[2] = molecular target: 229E Mpro (Human coronavirus 229E, UniProt P0C6X1); experiment: 229E Mpro enzymatic assay; conditions: read-out: 229E Mpro EC50

SMILES | IC50 [1] | EC50 [2]
CO[C@@H]1C[C@H](C(=O)N(c2ccc(S(F)(F)(F)(F)F)cc2)C(C(=O)NC(C)C2CCN(C(=O)OC(C)(C)C)C2)c2cccnc2)N(C#N)C1 (single isomer, unassigned) [1293 Isomer 1] | 2 to 10 µM | < 2000 nM
C[C@@]1(O)C[C@H](C(=O)N(c2ccc(S(F)(F)(F)(F)F)cc2)C(C(=O)NC2CCC(F)(F)CC2)c2cncc(F)c2)N(C#N)C1 (single isomer, unassigned) [817 Isomer 2] | 2 to 10 µM | < 2000 nM
N#CN1CC[C@@H](F)[C@@H]1C(=O)N(c1ccc(S(F)(F)(F)(F)F)cc1)C(C(=O)NC1CCC(F)(F)CC1)c1cncc(F)c1 (single isomer, unassigned) [1092 Isomer 2] | 2 to 10 µM | < 2000 nM
CO[C@@H]1C[C@H](C(=O)N(c2ccc(C(C)(C)C)cc2)C(C(=O)NC2CCOCC2)c2cccnc2)N(C#N)C1 (single isomer, unassigned) [1140 Isomer 1] | < 2 µM | < 2000 nM
CC(C)(C)c1ccc(N(C(=O)[C@H]2C[C@@H](O)CN2C#N)C(C(=O)NC2CCCCC2)c2cncc3ccccc23)cc1 (single isomer, unassigned) [667 Isomer 1] | < 2 µM | < 2000 nM
CN1CC(C(=O)N(c2ccc(S(F)(F)(F)(F)F)cc2)C(C(=O)NC2CCOCC2)c2cccnc2)N(C#N)CC1=O (single isomer, unassigned) [812 Isomer 3] | 2 to 10 µM | < 2000 nM
N#CN1CC(=O)NCC1C(=O)N(c1ccc(S(F)(F)(F)(F)F)cc1)C(C(=O)NC1CCOCC1)c1cccnc1 (single isomer, unassigned) [810 Isomer 3] | 2 to 10 µM | < 2000 nM
CC(C)(C)c1ccc(N(C(=O)[C@H]2COCCN2C#N)C(C(=O)NC2CCC(F)(F)CC2)c2cccnc2)cc1 (single isomer, unassigned) [1297 Isomer 2] | < 2 µM | < 2000 nM
CC(C)(C#N)c1ccc(N(C(=O)[C@H]2C[C@@H](O)CN2C#N)C(C(=O)NC2CCCCC2)c2cccnc2)cc1 (single isomer, unassigned) [771 Isomer 1] | < 2 µM | < 2000 nM
CC1(C)CN(C#N)[C@@H](C(=O)N(c2ccc(S(F)(F)(F)(F)F)cc2)C(C(=O)NC2CCC(F)(F)CC2)c2cccnc2)CO1 (single isomer, unassigned) [1163 Isomer 2] | < 2 µM | < 2000 nM
CC(C)(C)c1ccc(N(C(=O)C2CCN2C#N)C(C(=O)NC2CCCCC2)c2cccnc2)cc1 (single isomer, unassigned) [841 Isomer 1] | – | < 2000 nM
CO[C@@H]1C[C@H](C(=O)N(c2ccc(S(F)(F)(F)(F)F)cc2)C(C(=O)N2CCN(C(=O)OC(C)(C)C)C2)c2cccnc2)N(C#N)C1 (single isomer, unassigned) | 2 to 10 µM | < 2000 nM
CC(C)(C)c1ccc(N(C(=O)[C@H]2CCCN2C#N)C(C(=O)N2CC[C@H](O)C2)c2cccnc2)cc1 (single isomer, unassigned) [957 Isomer 2] | > 30 µM | 10000 to 30000 nM
CC(C)(C)c1ccc(N(C(=O)[C@H]2C[C@H](O)CN2)C(C(=O)NC2CCCCC2)c2cccnc2)cc1 (single isomer, unassigned) | – | > 30000 nM
N#CN1CC[C@@H](F)[C@@H]1C(=O)N(c1ccc(S(F)(F)(F)(F)F)cc1)C(C(=O)NC1CCC(F)(F)CC1)c1cncc(F)c1 (single isomer, unassigned) [1092 Isomer 1] | < 2 µM | < 2000 nM
CC(C)(C)OC(=O)NC1CN(C(=O)C(c2cccnc2)N(C(=O)[C@H]2CCCN2C#N)c2ccc(C(C)(C)C)cc2)C1 (single isomer, unassigned) [948 Isomer 2] | > 30 µM | 2000 to 10000 nM
CO[C@@H]1C[C@H](C(=O)N(c2ccc(S(F)(F)(F)(F)F)cc2)C(C(=O)N[C@H]2C[C@@](C)(O)C2)c2cccnc2)N(C#N)C1 (single isomer, unassigned) [1195 Isomer 1] | < 2 µM | < 2000 nM
COc1ccncc1C(C(=O)NC1CCC(F)(F)CC1)N(C(=O)[C@H]1C[C@@](C)(O)CN1C#N)c1ccc(S(F)(F)(F)(F)F)cc1 (single isomer, unassigned) | < 2 µM | < 2000 nM
CO[C@@H]1C[C@H](C(=O)N(c2ccc(S(F)(F)(F)(F)F)cc2)C(C(=O)NC2CCC(F)(F)CC2)c2cccnc2)N(C#N)C1 (single isomer, unassigned) [1154 Isomer 2] | < 2 µM | < 2000 nM
CO[C@@H]1C[C@H](C(=O)N(c2ccc(C(C)(C)C)cc2)C(C(=O)NC2CCOCC2)c2cccnc2)N(C#N)C1 (single isomer, unassigned) [1140 Isomer 2] | 2 to 10 µM | < 2000 nM
Cc1[nH]ncc1C(C(=O)NC1CCC(F)(F)CC1)N(C(=O)[C@H]1C[C@@](C)(O)CN1C#N)c1ccc(S(F)(F)(F)(F)F)cc1 (single isomer, unassigned) [1007c Isomer 1] | 2 to 10 µM | < 2000 nM
CC(C)(C)c1ccc(N(C(=O)[C@H]2c3ccccc3CN2C#N)C(C(=O)NC2CCCCC2)c2cccnc2)cc1 (single isomer, unassigned) [371a Isomer 1] | > 30 µM | < 2000 nM
C[C@@]1(O)C[C@H](C(=O)N(c2ccc(S(F)(F)(F)(F)F)cc2)C(C(=O)NC2CCC(F)(F)CC2)c2cncnc2)N(C#N)C1 (single isomer, unassigned) | < 2 µM | < 2000 nM

SMILES | IC50 [1] | EC50 [2]
CC1(C)CNc2cc(N(C(=O)[C@H]3C[C@@](C)(O)CN3C#N)C(C(=O)NC3CCC(F)(F)CC3)c3cncc(F)c3)ccc21 (single isomer, unassigned) [1131 Isomer 1] | < 2 µM | < 2000 nM
CC(C)(C)c1ccc(N(C(=O)[C@H]2COCCN2)C(C(=O)NC2CCCCC2)c2cccnc2)cc1 (single isomer, unassigned) | – | > 30000 nM
N#CN1CC(=O)NCC1C(=O)N(c1ccc(S(F)(F)(F)(F)F)cc1)C(C(=O)NC1CCOCC1)c1cccnc1 (single isomer, unassigned) [810 Isomer 2] | > 30 µM | 2000 to 10000 nM
CC(C)(C)OC(=O)N1CCN(C(=O)C(c2cccnc2)N(C(=O)[C@H]2CCCN2C#N)c2ccc(C(C)(C)C)cc2)CC1 (single isomer, unassigned) | > 30 µM | 10000 to 30000 nM
N#CN1C[C@@H]2CC[C@@H]2[C@@H]1C(=O)N(c1ccc(S(F)(F)(F)(F)F)cc1)C(C(=O)NC1CCC(F)(F)CC1)c1cncc(F)c1 (single isomer, unassigned) [1097 Isomer 1.1] | < 2 µM | < 2000 nM
Cc1[nH]ncc1C(C(=O)NC1CCC(F)(F)CC1)N(C(=O)[C@H]1C[C@@](C)(O)CN1C#N)c1ccc(S(F)(F)(F)(F)F)cc1 (single isomer, unassigned) [1007c Isomer 2] | 2 to 10 µM | < 2000 nM
CC(C)(C)c1ccc(N(C(=O)[C@H]2CCCN2C#N)C(C(=O)N[C@H]2C[C@@](C)(O)C2)c2cccnc2)cc1 (single isomer, unassigned) [1120 Isomer 2] | 10 to 30 µM | < 2000 nM
CC(C)(C)c1ccc(N(C(=O)[C@H]2CCCN2C#N)C(C(=O)N2CCNCC2)c2cccnc2)cc1 (single isomer, unassigned) | > 30 µM | > 30000 nM
N#CN1C[C@H](OC(F)F)C[C@@H]1C(=O)N(c1ccc(S(F)(F)(F)(F)F)cc1)C(C(=O)NC1CCC(F)(F)CC1)c1cncc(F)c1 (single isomer, unassigned) [1088 Isomer 2] | 2 to 10 µM | < 2000 nM
CC(C)(C)c1ccc(N(C(=O)[C@H]2CCCN2C#N)C(C(=O)N[C@H]2C[C@@](C)(O)C2)c2cccnc2)cc1 (single isomer, unassigned) [1120 Isomer 1] | 2 to 10 µM | < 2000 nM
C[C@@]1(O)C[C@H](C(=O)N(c2ccc(S(F)(F)(F)(F)F)cc2)C(C(=O)NC2CCC(F)(F)CC2)c2cncc(F)c2)N(C#N)C1 (single isomer, unassigned) [817 Isomer 1] | < 2 µM | < 2000 nM
CC(C)(C)c1ccc(N(C(=O)C2CCN2C#N)C(C(=O)NC2CCCCC2)c2cccnc2)cc1 (single isomer, unassigned) [841 Isomer 2.1] | – | 2000 to 10000 nM
CC(C)(C)c1ccc(N(C(=O)[C@H]2C[C@@H](O)CN2C#N)C(C(=O)NC2CCCCC2)c2cncc(C(F)(F)F)c2)cc1 (single isomer, unassigned) [683 Isomer 2] | 10 to 30 µM | 2000 to 10000 nM
N#CN1CC(=O)NCC1C(=O)N(c1ccc(S(F)(F)(F)(F)F)cc1)C(C(=O)NC1CCOCC1)c1cccnc1 (single isomer, unassigned) [810 Isomer 4] | 2 to 10 µM | < 2000 nM
CC1(C)CN[C@@H](C(=O)N(c2ccc(C(C)(C)C)cc2)C(C(=O)NC2CCCCC2)c2cccnc2)CO1 (single isomer, unassigned) | – | > 30000 nM
CC(C)(C)c1ccc(N(C(=O)[C@@]2(C)CCCN2)C(C(=O)NC2CCCCC2)c2cccnc2)cc1 (single isomer, unassigned) | – | > 30000 nM
CC(C)(C)c1ccc(N(C(=O)C2CCN2C#N)C(C(=O)NC2CCCCC2)c2cccnc2)cc1 (single isomer, unassigned) [841 Isomer 1.2] | – | > 30000 nM
CC(C)(C)c1ccc(N(C(=O)C2CCN2C#N)C(C(=O)NC2CCCCC2)c2cccnc2)cc1 (single isomer, unassigned) [841 Isomer 2] | – | > 30000 nM
CC1CCC(C(=O)N(c2ccc(C(C)(C)C)cc2)C(C(=O)NC2CCCCC2)c2cccnc2)N1C(=O)OC(C)(C)C (single isomer, unassigned) [239 Isomer 2] | – | < 2000 nM
CC(C)(C)c1ccc(N(C(=O)[C@H]2CCN2C#N)C(C(=O)NC2CCCCC2)c2cccnc2)cc1 (single isomer, unassigned) [841a Isomer 2] | – | < 2000 nM
CC1CCC(C(=O)N(c2ccc(C(C)(C)C)cc2)C(C(=O)NC2CCCCC2)c2cccnc2)N1C(=O)OC(C)(C)C (single isomer, unassigned) [239 Isomer 1] | – | 10000 to 30000 nM
CC(C)(C)c1ccc(N(C(=O)[C@H]2CCN2C#N)C(C(=O)NC2CCCCC2)c2cccnc2)cc1 (single isomer, unassigned) [841a Isomer 1] | – | < 2000 nM
CC(C)(C)c1ccc(N(C(=O)[C@H]2C[C@@H](O)CN2)C(C(=O)NC2CCCCC2)c2cccnc2)cc1 (single isomer, unassigned) | – | > 30000 nM
